Consider one molecule from patent US20250179152A1 (TEXAS A AND M UNIVERSITY SYSTEM, published 2025).

Test [1] addresses spike protein of authentic SARS-CoV-2 B.1.351 (SARS-CoV-2 (B.1.351)). The experiment in a line: cell-based or functional assay.
Test [2] concerns the target spike protein of authentic SARS-CoV-2 B.1.617.2 (SARS-CoV-2 (B.1.617.2)). The test can be described thus: cell-based or functional assay.

B1: FSR16m (designed binder)
chain: MGMEQKLISEEDLDGYIPEAPRDGQAYVRKDGEWVLLSTFLGGGGSLQGGGGSLQGSDLGKKLLEAARAGQDDEVRILMANGADVNALDLFGVTPLHLAAERGHLEIVEVLLKNGADVNAGDAFGRTPLHLAALGGHLEIVEVLLKNGADVNACDLYGVTPLHLAAGLGHLEIVEVLLKNGADVNAQDKFGKTAFDISIDNGNEDLAEILQSSSKLAAALEHHHHHH
In the case of B1, in test [1], the “IC50 against authentic Beta (B.1.351) variant” value was found to be 0.047 nM. Also, in test [2], the “IC50 against authentic Delta (B.1.617.2) variant” value was determined as 0.031 nM.
